Anti-infective test results gathered from many reports (values: NIAID ChemDB through PubChem).

Shared fields: target-level tests; species: Hepatitis C virus; target: Nonstructural protein 5B; read-out: IC50

a–b is a range or a potency band.

smiles,method,strain,result
CC(C)Oc1ccc(CCC2(C3CCCC3)CC(O)=C(Sc3ccc(O)cc3)C(=O)O2)cc1Cl,,,<1 µM
CNC(=O)c1c(-c2ccc(F)cc2)oc2cc(S(=O)(=O)N3CCC(O)CC3)c(OC(C)C)cc12,,,≤0.5 µM
CCCN(C1=C(O)CC(CCc2ccc(O)cc2)(C2CCCC2)OC1=O)c1ccccc1,,,1–10 µM
O=C(O)c1ccc(N2C(=O)C(=Cc3ccc(-c4cc(Cl)cc(Cl)c4)o3)SC2=S)cc1,,,≤1 µM
Cc1cc(CCC2(C3CCCC3)CC(O)=CC(=O)O2)ccc1C1(C)OCCO1,,,1–10 µM
CNC(=O)c1c(-c2ccc(F)cc2)oc2cc(N(C)S(C)(=O)=O)c(OCC3CC3)cc12,,,≤0.5 µM
O=C1C=C(O)CC(CCc2ccc(Oc3ccccc3)cc2)(C2CCCC2)O1,,,10–50 µM
COc1c(-c2ccc3cc(NS(C)(=O)=O)ccc3c2)cc(-n2ccc(=O)[nH]c2=O)cc1C(C)(C)C,nucleotide incorporation,GT 1a#1,0.0024 µM
O=C(O)c1ccc(N2C(=O)C(=Cc3ccc(-c4cc(Cl)ccc4Cl)o3)SC2=S)cc1,,,≤1 µM
C[C@@]1(O)[C@H](O)[C@@H](COP(=O)([O-])OP(=O)([O-])OP(=O)([O-])O)O[C@H]1n1cnc2c(N)nc(N)nc21,nucleotide incorporation,WT gt 4a,1.4 µM
CCOc1cc2c(C(=O)NC)c(-c3ccc(F)cc3)oc2cc1N(CC)S(C)(=O)=O,,,≤0.5 µM
Cc1c(-c2ccc(C=C3SC(=S)N(c4ccc(C(=O)O)cc4)C3=O)o2)sc2ccc(Cl)cc12,,,≤1 µM
CCNc1cc2oc(-c3ccc(F)cc3)c(C(=O)NC)c2cc1OCCCBr,,,≤0.5 µM
O=C(O)CCN1C(=O)C(=Cc2ccc(-c3ccco3)o2)SC1=S,,,≤1 µM
CCOC(=O)c1csc(CN(c2cc3oc(-c4ccc(F)cc4)c(C(=O)NC)c3cc2OC(C)C)S(C)(=O)=O)n1,,,≤0.5 µM
CCCc1ccc(-c2ccc(C=C3SC(=S)NC3=O)s2)cc1,,,≤1 µM
CNC(=O)c1c(-c2ccc(F)cc2)oc2cc(C(C)(C)O)c(OC)cc12,,,≤0.5 µM
Cc1cc(-c2ccc(C=C3SC(=S)N(c4ccc(C(=O)O)cc4)C3=O)o2)oc1C,,,≤1 µM

For reference, 2 entries again:

smiles	method	strain	result
COc1c(-c2ccc3cc(NS(C)(=O)=O)ccc3c2)cc(-n2ccc(=O)[nH]c2=O)cc1C(C)(C)C	nucleotide incorporation	GT 1a#1	0.0024 µM
Cc1cc(CCC2(C3CCCC3)CC(O)=CC(=O)O2)ccc1C1(C)OCCO1			1–10 µM

An empty or dashed field is not shown. ICn: concentration for n% inhibition. Rows are shuffled and stem from different studies.